Source: article PMC3542137, “Mycobacterium tuberculosis RecG binds and unwinds model DNA substrates with a preference for Holliday junctions”

Test system: Nc1ncnc2c1ncn2[C@@H]1O[C@H](COP(=O)(O)OP(=O)(O)OP(=O)(O)O)[C@@H](O)[C@H]1O
Experiment: purified protein
Details: pH 7.5; 37.0 °C

RecGMtb (Mycobacterium tuberculosis H37Rv)
Km: 202 (±35) µM
